Measurements published in patent US11485758B2, “Bi-terminal pegylated integrin-binding peptides and methods of use thereof” (The Regents of the University of California, priority 2014, dated 2022).
“And” between values parts separate entries of the source, which are not always exact repeats. Equal values may be shown once. Read-outs that look alike come from different tables or passages of the source.

Columns and labels:
[1] = test system: BxPC-3 tumors (endogenous αvβ6-expression)
Protocol: (PBS) or 37° C. (serum), followed by analysis on radio HPLC. Data are expressed as % probe remaining intact in sample. […] Tumor models—DX3puroβ6/DX3puro: Human melanoma cell line. DX3puroβ6 has been stably transfected to express integrin αvβ6. DX3puro is negative control cell line. […] BxPC-3: Pancreatic cell line with endogenous αvβ6-expression. MIA PaCa-2: Pancreatic cell line, no αvβ6-expression.

[2] = test system: integrin αvβ6-expressing DX3puroβ6 tumors

Row | Substance | BxPC-3 (POS) tumor uptake ([1]; 1 h p.i.) | BxPC-3 (POS) tumor uptake ([1]; 4 h p.i.) | DX3puroβ6 (POS) tumor uptake ([2]; 1 h p.i.) | DX3puroβ6 (POS) tumor uptake ([2]; 4 h p.i.) | DX3puroβ6 (POS) tumor uptake ([2]; 2 h p.i.)
1 | 18F-FBA-PEG28-PEG28-A20FMDV2 [compound 3] | 1.6 % ID/g | 2.1 % ID/g | 0.52 % ID/g | 0.54 % ID/g | –
2 | PEG28-A20FMDV2(K16R)-PEG28 | – | – | 2.51 % ID/g | – | –
3 | 18F-FBA-PEG28-A20FMDV2 [compound 2] | 1.9 % ID/g | 1.5 % ID/g | 0.49 % ID/g | 0.49 % ID/g | –
4 | 18F-FBA-A20FMDV2-PEG28 [compound 4] | – | – | 1.3 % ID/g | 0.3 % ID/g | 1.0 % ID/g
5 | [^18F]FBA-PEG28-A20FMDV2 K16R-PEG28 [compound 5R] | – | – | – | 2.64 % ID/g | –
6 | 18F-FBA-PEG28-A20FMDV2-PEG28 [compound 5] | 4.7 % ID/g and 4.71±0.88 % ID/g | 3.4 % ID/g and 3.39±1.34 % ID/g | 2.3 % ID/g | 1.4 % ID/g | –
